pIC50: −log10 of the molar value. Like-named read-outs stand apart in the source and are kept apart here.
Experiments:
S. aureus DNA gyrase = S. aureus DNA gyrase (Staphylococcus aureus, UniProt P0A0K8+P20831); assay: DNA gyrase supercoiling assay (S. aureus); conditions: for % inhibition DNA gyrase: n/a = not active
E. coli Topoisomerase IV = E. coli Topoisomerase IV (Escherichia coli, UniProt P0AFI2+P20083); assay: Topoisomerase IV decatenation assay (E. coli); assay type: biochemical; conditions: for % inhibition Topo IV: n/a = not active
E. coli DNA gyrase = E. coli DNA gyrase (Escherichia coli, UniProt P0AES4+P0AES6); assay: DNA gyrase supercoiling assay (E. coli); assay type: biochemical; conditions: for % inhibition DNA gyrase: n/a = not active
[1] = biological target: S. aureus Topoisomerase IV (Staphylococcus aureus, UniProt P0C1S7+P0C1U9); assay: Topoisomerase IV decatenation assay (S. aureus); assay type: biochemical; conditions: for % inhibition Topo IV: n/a = not active; for pIC50: read-out: IC50 Topo IV, concentration-response curve, eight half-log concentrations 0.1 to 300 μM
Experimental: The above compounds were tested for the inhibition of the enzyme DNA gyrase in a gyrase supercoiling assay and for the inhibition of the enzyme topoisomerase IV in a decatenation assay, in both Gram positive and Gram negative bacteria, according to the following methods.
Both the assays were carried out according to a set-up method modified from the article to Blanche F, et al. “Differential Behaviors of Staphylococcus aureus and Escherichia coli Type II DNA Topoisomerases”, Antimicrob. Agents Chemother., 1996, Vol. 40, No. 12 p. 2714-2720.
The compounds were screened at single concentration (200, 100 or 50 μM), in duplicate.
S. aureus and E. coli Topoisomerase IV decatenation kits (Inspiralis, UK) were used. A master mix with a total volume sufficient for the number of reactions to perform was prepared with the following reagents: 5× assay buffer (50 mM HEPES-KOH (pH 7.6), 100 mM potassium glutamate, 10 mM magnesium acetate, 10 mM DTT, 1 mM ATP, 50 μg/ml albumin), kDNA substrate (200 ng/reaction), RNase-DNase free water. Aliquots of this mix were dispensed in each tube, then 10× compound stock solutions or vehicle control (DMSO), were added in each reaction tube.
Reaction was started with Topoisomerase IV enzyme (0.5 U/reaction) addition.
A sample added with an equal volume of dilution buffer was used as negative control (without enzyme).
The reaction tubes were gentle vortexed and incubated 30 minutes at 37° C. Each reaction was stopped by adding 30 μl of Stop Buffer and 30 μl of chloroform/isoamyl alcohol (24/1), briefly vortexed for 5-10 seconds and centrifuged at 20000×g for 2 minutes. Samples taken from the upper phase were loaded into 1% agarose gel and subjected to electrophoresis for 1 hour at 80V constant voltage in TAE (40 mM Tris-acetate, 2 mM EDTA).
Data acquisition and analysis. Due to the high molecular mass, kDNA could not enter an agarose gel under normal electrophoresis conditions, but remained in the wells. In the presence of Topo IV topoisomerase mini-circles (2.5 Kb) were released from kDNA by decatenation and were quickly and easily resolved in the gel at relatively high voltages.
Bands were visualized by ethidium bromide staining (dil 1:20000) for 30 minutes followed by destaining in distilled water for 10 minutes.
For single concentration screening assay, in order to evaluate the compounds activity on the enzymes, the bands of decatenated DNAs in the gel were photographed by a digital imaging system ImageQuant LAS 4000 (GE Healthcare) according to manufacturer's instructions.
The fluorescent intensity of each band was analyzed by ImageQuant TL software and it was expressed as volume (volume of the uncalibrated quantity of material in the image feature after subtraction of the background intensity by using rolling ball method).
Each band intensity was compared, as percentage, to vehicle sample band intensity, which served as positive control, on the same gel.
Inhibitory activity was expressed as percent of inhibition versus the positive control.
The supercoiled or decatenated DNA bands obtained as described in Example 1 were analysed as follows.
Bands were analyzed by gel documentation equipment (Syngene, Cambridge, UK) and quantitated using Syngene Gene Tools software. Raw gel data (fluorescent band volumes) collected from Syngene, GeneTools gel analysis software were converted to a percentage of the 100% control (the fully supercoiled or decatenated DNA band). […] The IC50 data were calculated by using the global curve fit non-linear regression tool by selecting the Single, 2 Parameter fit function from the Exponential Decay equation category.

By UniProt entry, the sequences of proteins in these tests, tags left out.
UniProt P0A0K8, whole entry: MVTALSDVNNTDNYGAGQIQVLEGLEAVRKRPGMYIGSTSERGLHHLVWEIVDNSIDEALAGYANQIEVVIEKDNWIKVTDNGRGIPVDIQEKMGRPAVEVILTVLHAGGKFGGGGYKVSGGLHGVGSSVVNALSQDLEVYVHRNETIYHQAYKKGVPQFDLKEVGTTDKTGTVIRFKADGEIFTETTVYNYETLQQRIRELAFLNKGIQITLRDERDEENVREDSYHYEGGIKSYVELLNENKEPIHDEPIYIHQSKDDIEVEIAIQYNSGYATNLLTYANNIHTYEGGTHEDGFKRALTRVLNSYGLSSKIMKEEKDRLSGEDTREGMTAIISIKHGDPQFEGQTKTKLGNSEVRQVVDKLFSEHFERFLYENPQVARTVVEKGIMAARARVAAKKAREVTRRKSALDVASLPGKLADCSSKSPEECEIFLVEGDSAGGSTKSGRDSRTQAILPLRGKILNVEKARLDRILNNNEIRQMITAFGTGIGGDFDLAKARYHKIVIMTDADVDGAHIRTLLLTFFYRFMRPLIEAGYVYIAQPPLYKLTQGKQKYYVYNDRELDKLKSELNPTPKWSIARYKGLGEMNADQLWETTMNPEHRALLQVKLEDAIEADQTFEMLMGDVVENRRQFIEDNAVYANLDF
UniProt P20831, whole entry: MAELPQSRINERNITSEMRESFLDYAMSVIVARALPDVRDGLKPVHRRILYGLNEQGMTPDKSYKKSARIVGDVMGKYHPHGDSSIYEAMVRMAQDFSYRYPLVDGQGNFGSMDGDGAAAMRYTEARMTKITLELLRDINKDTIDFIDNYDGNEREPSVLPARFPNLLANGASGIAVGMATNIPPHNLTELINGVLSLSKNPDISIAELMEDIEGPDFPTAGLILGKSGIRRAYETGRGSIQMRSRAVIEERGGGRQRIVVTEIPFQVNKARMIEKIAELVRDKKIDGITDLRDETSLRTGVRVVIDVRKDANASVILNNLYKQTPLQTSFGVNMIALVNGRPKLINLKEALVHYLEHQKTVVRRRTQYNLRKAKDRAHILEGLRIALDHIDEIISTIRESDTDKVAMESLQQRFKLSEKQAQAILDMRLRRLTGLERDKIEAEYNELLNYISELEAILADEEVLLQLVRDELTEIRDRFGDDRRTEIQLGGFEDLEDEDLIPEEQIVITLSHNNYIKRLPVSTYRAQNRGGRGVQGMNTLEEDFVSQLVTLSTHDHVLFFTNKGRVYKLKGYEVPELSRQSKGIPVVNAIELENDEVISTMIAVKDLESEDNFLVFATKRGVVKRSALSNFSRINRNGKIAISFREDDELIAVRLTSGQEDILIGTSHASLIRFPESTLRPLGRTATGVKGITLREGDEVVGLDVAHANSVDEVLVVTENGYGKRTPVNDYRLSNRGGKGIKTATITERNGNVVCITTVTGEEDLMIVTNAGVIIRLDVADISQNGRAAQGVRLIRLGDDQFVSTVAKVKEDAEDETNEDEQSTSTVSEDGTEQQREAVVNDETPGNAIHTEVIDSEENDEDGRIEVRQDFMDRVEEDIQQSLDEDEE
UniProt P0AFI2, whole entry: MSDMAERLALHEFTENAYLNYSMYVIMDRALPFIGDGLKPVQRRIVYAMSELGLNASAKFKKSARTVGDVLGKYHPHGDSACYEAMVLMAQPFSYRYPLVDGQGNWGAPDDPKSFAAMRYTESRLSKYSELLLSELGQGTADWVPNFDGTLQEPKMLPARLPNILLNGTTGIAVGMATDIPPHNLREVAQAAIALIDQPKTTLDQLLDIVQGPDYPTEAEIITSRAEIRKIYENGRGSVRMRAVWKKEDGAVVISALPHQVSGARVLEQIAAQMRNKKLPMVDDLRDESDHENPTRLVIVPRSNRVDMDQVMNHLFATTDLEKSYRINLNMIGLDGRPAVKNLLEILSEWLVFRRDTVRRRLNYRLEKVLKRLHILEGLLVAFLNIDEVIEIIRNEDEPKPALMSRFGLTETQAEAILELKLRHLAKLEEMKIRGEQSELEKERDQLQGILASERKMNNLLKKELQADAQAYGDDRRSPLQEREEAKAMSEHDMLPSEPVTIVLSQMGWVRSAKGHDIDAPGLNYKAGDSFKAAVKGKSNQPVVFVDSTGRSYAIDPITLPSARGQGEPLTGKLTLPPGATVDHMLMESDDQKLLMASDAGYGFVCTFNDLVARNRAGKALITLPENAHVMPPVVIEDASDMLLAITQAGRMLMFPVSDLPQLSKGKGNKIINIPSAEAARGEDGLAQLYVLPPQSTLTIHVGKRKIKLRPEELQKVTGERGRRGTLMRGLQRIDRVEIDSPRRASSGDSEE
UniProt P20083, whole entry: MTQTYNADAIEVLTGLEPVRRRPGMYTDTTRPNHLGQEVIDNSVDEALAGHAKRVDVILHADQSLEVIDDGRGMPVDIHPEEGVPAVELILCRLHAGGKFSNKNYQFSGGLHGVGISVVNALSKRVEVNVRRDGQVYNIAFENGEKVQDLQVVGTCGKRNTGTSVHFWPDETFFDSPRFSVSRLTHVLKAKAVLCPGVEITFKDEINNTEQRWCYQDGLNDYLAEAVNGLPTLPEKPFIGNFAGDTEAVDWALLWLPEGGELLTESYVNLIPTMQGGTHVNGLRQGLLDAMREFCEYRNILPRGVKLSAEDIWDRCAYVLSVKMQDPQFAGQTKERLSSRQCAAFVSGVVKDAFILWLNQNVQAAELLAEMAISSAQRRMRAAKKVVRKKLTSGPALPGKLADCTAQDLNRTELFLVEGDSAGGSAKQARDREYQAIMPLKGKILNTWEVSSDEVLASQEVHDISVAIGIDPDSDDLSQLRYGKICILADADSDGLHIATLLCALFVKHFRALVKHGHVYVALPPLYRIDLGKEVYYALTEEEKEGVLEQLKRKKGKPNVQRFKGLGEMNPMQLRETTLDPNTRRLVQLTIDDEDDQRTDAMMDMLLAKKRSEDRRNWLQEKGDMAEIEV
UniProt P0AES4, whole entry: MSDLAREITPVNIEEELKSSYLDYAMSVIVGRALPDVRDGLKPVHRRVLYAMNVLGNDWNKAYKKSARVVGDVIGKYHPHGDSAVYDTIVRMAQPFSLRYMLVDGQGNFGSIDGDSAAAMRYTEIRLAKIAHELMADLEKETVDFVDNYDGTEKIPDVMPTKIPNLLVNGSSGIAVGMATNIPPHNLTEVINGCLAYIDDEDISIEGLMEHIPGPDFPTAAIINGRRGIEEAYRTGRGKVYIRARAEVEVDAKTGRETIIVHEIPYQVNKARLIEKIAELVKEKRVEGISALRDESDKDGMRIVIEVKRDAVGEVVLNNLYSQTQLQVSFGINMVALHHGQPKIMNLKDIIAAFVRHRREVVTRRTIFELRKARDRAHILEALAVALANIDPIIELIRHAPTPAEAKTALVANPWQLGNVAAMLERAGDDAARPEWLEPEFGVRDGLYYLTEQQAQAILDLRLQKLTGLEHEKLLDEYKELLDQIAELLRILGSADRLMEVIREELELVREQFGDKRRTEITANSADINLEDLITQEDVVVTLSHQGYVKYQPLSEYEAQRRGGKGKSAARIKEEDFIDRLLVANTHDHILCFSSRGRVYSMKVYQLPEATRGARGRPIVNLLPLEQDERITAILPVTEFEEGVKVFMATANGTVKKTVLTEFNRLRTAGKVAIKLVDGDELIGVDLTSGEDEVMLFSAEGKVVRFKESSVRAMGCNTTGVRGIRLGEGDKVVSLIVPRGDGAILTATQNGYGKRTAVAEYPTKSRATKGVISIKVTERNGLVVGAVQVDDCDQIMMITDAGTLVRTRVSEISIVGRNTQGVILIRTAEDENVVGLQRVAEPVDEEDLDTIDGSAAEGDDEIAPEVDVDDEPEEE
UniProt P0C1S7, whole entry: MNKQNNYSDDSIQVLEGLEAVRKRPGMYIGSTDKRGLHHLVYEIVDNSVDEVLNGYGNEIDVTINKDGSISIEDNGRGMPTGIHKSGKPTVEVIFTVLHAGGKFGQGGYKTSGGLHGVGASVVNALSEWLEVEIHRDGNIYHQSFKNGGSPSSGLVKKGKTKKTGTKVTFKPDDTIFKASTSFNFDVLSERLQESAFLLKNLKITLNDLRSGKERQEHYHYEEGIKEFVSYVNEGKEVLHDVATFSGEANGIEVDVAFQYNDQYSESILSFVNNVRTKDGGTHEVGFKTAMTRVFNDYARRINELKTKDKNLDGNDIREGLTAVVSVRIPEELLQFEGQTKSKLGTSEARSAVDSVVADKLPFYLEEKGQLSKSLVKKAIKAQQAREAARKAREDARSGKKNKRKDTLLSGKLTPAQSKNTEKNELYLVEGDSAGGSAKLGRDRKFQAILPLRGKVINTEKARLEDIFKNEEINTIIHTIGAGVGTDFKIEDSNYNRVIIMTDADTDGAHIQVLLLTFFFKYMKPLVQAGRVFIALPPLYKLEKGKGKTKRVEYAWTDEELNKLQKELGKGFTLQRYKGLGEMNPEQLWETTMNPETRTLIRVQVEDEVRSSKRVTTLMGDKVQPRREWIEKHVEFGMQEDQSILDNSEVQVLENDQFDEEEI
UniProt P0C1U9, whole entry: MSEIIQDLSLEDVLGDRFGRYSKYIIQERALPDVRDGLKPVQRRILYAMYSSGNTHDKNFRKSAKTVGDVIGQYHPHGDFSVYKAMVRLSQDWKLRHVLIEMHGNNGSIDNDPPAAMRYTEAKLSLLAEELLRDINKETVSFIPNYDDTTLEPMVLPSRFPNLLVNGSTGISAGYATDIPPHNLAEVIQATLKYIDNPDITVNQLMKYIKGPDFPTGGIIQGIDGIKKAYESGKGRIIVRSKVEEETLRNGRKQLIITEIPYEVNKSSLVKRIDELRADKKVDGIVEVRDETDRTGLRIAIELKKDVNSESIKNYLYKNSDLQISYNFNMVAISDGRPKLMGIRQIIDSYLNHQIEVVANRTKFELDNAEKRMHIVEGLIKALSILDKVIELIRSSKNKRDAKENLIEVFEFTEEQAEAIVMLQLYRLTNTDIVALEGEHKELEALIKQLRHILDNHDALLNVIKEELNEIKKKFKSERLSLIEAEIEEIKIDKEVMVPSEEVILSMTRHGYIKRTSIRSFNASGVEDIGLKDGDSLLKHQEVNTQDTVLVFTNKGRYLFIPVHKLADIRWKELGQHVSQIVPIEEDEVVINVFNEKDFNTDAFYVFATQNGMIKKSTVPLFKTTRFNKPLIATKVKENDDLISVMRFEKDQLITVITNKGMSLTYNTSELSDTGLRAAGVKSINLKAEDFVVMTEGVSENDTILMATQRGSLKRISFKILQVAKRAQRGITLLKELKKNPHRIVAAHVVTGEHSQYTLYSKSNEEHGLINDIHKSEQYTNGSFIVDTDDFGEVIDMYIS

[2] = read-out: IC50 DNA gyrase, concentration-response curve, eight half-log concentrations 0.1 to 300 μM
[3] = read-out: IC50 Topo IV, concentration-response curve, eight half-log concentrations 0.1 to 300 μM
[4] = conc. 50 μM, tested form: hydrochloride
[5] = conc. 100 μM, tested form: hydrochloride
[6] = read-out: IC50 DNA gyrase, concentration-response curve, eight half-log concentrations 0.1 to 300 μM, tested form: hydrochloride
[7] = read-out: IC50 Topo IV, concentration-response curve, eight half-log concentrations 0.1 to 300 μM, tested form: hydrochloride

O=c1cc(N[C@@H]2CC[C@@H](N3CCN(c4nccc5ccccc45)CC3)C2)c2ccccc2o1 (relative stereo)
% inhibition DNA gyrase (S. aureus DNA gyrase; conc. 50 μM): 81% | pIC50 (S. aureus DNA gyrase; [2]): 5.20 | % inhibition Topo IV (E. coli Topoisomerase IV; conc. 50 μM): 65% | pIC50 (E. coli Topoisomerase IV; [3]): 5.17 | % inhibition DNA gyrase (E. coli DNA gyrase; conc. 50 μM): 89% | pIC50 (E. coli DNA gyrase; [2]): 4.71

O=c1cc(NCC(O)CN2CCN(c3nccc4ccccc34)CC2)c2ccccc2o1 (single isomer, unassigned) [Compound 93]
% inhibition DNA gyrase (S. aureus DNA gyrase; conc. 50 μM): 95% | pIC50 (S. aureus DNA gyrase; [2]): 5.28 | % inhibition Topo IV (E. coli Topoisomerase IV; conc. 50 μM): 100% | pIC50 (E. coli Topoisomerase IV; [3]): 5.42 | % inhibition Topo IV ([1]; conc. 50 μM): 63% | pIC50 [1]: 5.16 | % inhibition DNA gyrase (E. coli DNA gyrase; conc. 50 μM): 100% | pIC50 (E. coli DNA gyrase; [2]): 5.66

O=c1cc(NCCCN2CCN(c3nccc4ccccc34)CC2)c2cc(Cl)ccc2o1
% inhibition DNA gyrase (S. aureus DNA gyrase; [4]): 87% | % inhibition Topo IV (E. coli Topoisomerase IV; [4]): 100% | % inhibition Topo IV [1, 4]: 92% | % inhibition DNA gyrase (E. coli DNA gyrase; [4]): 100%

O=C1C=C(NCCCN2CCN(c3nccc4ccccc34)CC2)c2ccccc21
% inhibition DNA gyrase (S. aureus DNA gyrase; conc. 100 μM): 88% | % inhibition Topo IV (E. coli Topoisomerase IV; conc. 100 μM): 51% | pIC50 (E. coli Topoisomerase IV; [3]): 4.29 | % inhibition DNA gyrase (E. coli DNA gyrase; conc. 100 μM): 94% | pIC50 (E. coli DNA gyrase; [2]): 4.92

O=c1cc(N[C@H]2CC[C@@H](N3CCN(c4nccc5ccccc45)CC3)C2)c2ccccc2o1 (relative stereo)
% inhibition DNA gyrase (S. aureus DNA gyrase; conc. 50 μM): 85% | pIC50 (S. aureus DNA gyrase; [2]): 4.86 | % inhibition Topo IV (E. coli Topoisomerase IV; conc. 50 μM): 73% | pIC50 (E. coli Topoisomerase IV; [3]): 5.42 | % inhibition DNA gyrase (E. coli DNA gyrase; conc. 50 μM): 93% | pIC50 (E. coli DNA gyrase; [2]): 5.17

O=c1cc(NCCN2CCN(c3nccc4ccccc34)CC2)c2ccccc2o1
% inhibition DNA gyrase (S. aureus DNA gyrase; [5]): 86% | % inhibition Topo IV (E. coli Topoisomerase IV; [5]): 71% | % inhibition DNA gyrase (E. coli DNA gyrase; [5]): 96%

N#Cc1cc2ccccc2c(N2CCN(CCCNc3cc(=O)oc4ccccc34)CC2)n1
% inhibition DNA gyrase (S. aureus DNA gyrase; [4]): 81% | % inhibition Topo IV (E. coli Topoisomerase IV; [4]): 53% | % inhibition DNA gyrase (E. coli DNA gyrase; [4]): 92%

N#Cc1ccc2ccnc(N3CCN(CCCNc4cc(=O)oc5ccccc45)CC3)c2c1
% inhibition DNA gyrase (S. aureus DNA gyrase; [5]): 81% | % inhibition Topo IV (E. coli Topoisomerase IV; [5]): 96% | % inhibition DNA gyrase (E. coli DNA gyrase; [5]): 100%

O=c1cc(NCCCN2CCN(c3nccc4ccc(F)cc34)CC2)c2c(o1)CCS(=O)(=O)C2
% inhibition DNA gyrase (S. aureus DNA gyrase; [4]): 76% | % inhibition Topo IV (E. coli Topoisomerase IV; [4]): 70% | % inhibition DNA gyrase (E. coli DNA gyrase; [4]): 89%

O=c1cc(NCCCN2CCN(c3nc(F)cc4ccccc34)CC2)c2ccccc2o1
% inhibition DNA gyrase (S. aureus DNA gyrase; [4]): 95% | % inhibition Topo IV (E. coli Topoisomerase IV; [4]): 95% | % inhibition Topo IV [1, 4]: 67% | % inhibition DNA gyrase (E. coli DNA gyrase; [4]): 99%

O=c1cc(NCCCN2CCN(c3nccc4ccc(F)cc34)CC2)c2c(o1)CCSC2
% inhibition DNA gyrase (S. aureus DNA gyrase; [4]): 95% | % inhibition Topo IV (E. coli Topoisomerase IV; [4]): 100% | % inhibition Topo IV [1, 4]: 86% | % inhibition DNA gyrase (E. coli DNA gyrase; [4]): 96%

O=c1cc(NCC(O)CN2CCN(c3nccc4ccccc34)CC2)c2ccccc2o1 (single isomer, unassigned) [Compound 94]
% inhibition DNA gyrase (S. aureus DNA gyrase; conc. 50 μM): 100% | pIC50 (S. aureus DNA gyrase; [2]): 5.38 | % inhibition Topo IV (E. coli Topoisomerase IV; conc. 50 μM): 91% | pIC50 (E. coli Topoisomerase IV; [3]): 5.52 | % inhibition Topo IV ([1]; conc. 50 μM): 88% | pIC50 [1]: 4.86 | % inhibition DNA gyrase (E. coli DNA gyrase; conc. 50 μM): 100% | pIC50 (E. coli DNA gyrase; [2]): 5.32

O=c1cc(NCCCN2CCN(c3nccc4ccccc34)CC2)c2c(o1)CCCC2
% inhibition DNA gyrase (S. aureus DNA gyrase; [4]): 95% | % inhibition Topo IV (E. coli Topoisomerase IV; [4]): 64% | % inhibition Topo IV [1, 4]: 53% | % inhibition DNA gyrase (E. coli DNA gyrase; [4]): 96%

Cc1cc2ccccc2c(N2CCN(CCCNc3cc(=O)oc4ccccc34)CC2)n1
% inhibition DNA gyrase (S. aureus DNA gyrase; [5]): 70% | % inhibition Topo IV (E. coli Topoisomerase IV; [5]): 79% | % inhibition DNA gyrase (E. coli DNA gyrase; [5]): 96%

O=c1cc(NC[C@@H](O)CN2CCN(c3nccc4ccc(F)cc34)CC2)c2ccccc2o1
% inhibition DNA gyrase (S. aureus DNA gyrase; conc. 50 μM): 100% | % inhibition Topo IV (E. coli Topoisomerase IV; conc. 50 μM): 100% | % inhibition Topo IV ([1]; conc. 50 μM): 100% | % inhibition DNA gyrase (E. coli DNA gyrase; conc. 50 μM): 98%

O=c1nc(NC[C@H](O)CN2CCN(c3nccc4ccc(F)cc34)CC2)c2ccccc2o1
% inhibition DNA gyrase (S. aureus DNA gyrase; conc. 50 μM): 100% | pIC50 (S. aureus DNA gyrase; [2]): 6.00 | % inhibition Topo IV (E. coli Topoisomerase IV; conc. 50 μM): 100% | pIC50 (E. coli Topoisomerase IV; [3]): 5.66 | % inhibition Topo IV ([1]; conc. 50 μM): 68% | pIC50 [1]: 6.22 | % inhibition DNA gyrase (E. coli DNA gyrase; conc. 50 μM): 100% | pIC50 (E. coli DNA gyrase; [2]): 5.57

CN(C)c1ccc2ccnc(N3CCN(CCCNc4cc(=O)oc5ccccc45)CC3)c2c1
% inhibition DNA gyrase (S. aureus DNA gyrase; [4]): 90% | % inhibition Topo IV (E. coli Topoisomerase IV; [4]): 90% | % inhibition DNA gyrase (E. coli DNA gyrase; [4]): 93%

O=c1cc(NC[C@H](O)CN2CCN(c3nccc4ccc(F)cc34)CC2)c2ccccc2o1
% inhibition DNA gyrase (S. aureus DNA gyrase; conc. 50 μM): 100% | % inhibition Topo IV (E. coli Topoisomerase IV; conc. 50 μM): 100% | % inhibition Topo IV ([1]; conc. 50 μM): 100% | % inhibition DNA gyrase (E. coli DNA gyrase; conc. 50 μM): 100%

Cc1cccc2ccnc(N3CCN(CCCNc4cc(=O)oc5ccccc45)CC3)c12
% inhibition DNA gyrase (S. aureus DNA gyrase; [4]): 100% | pIC50 (S. aureus DNA gyrase; [6]): 5.32 | % inhibition Topo IV (E. coli Topoisomerase IV; [4]): 76% | pIC50 (E. coli Topoisomerase IV; [7]): 5.74 | % inhibition DNA gyrase (E. coli DNA gyrase; [4]): 100% | pIC50 (E. coli DNA gyrase; [6]): 6.00

O=c1nc(NCCCN2CCN(c3nccc4ccccc34)CC2)c2ccccc2o1
% inhibition DNA gyrase (S. aureus DNA gyrase; [5]): 93% | pIC50 (S. aureus DNA gyrase; [6]): 5.28 | % inhibition Topo IV (E. coli Topoisomerase IV; [5]): 94% | pIC50 (E. coli Topoisomerase IV; [7]): 4.78 | % inhibition DNA gyrase (E. coli DNA gyrase; [5]): 93% | pIC50 (E. coli DNA gyrase; [6]): 4.69

O=c1cc(NCCCN2CCN(c3nccc4ccccc34)CC2)c2cc(F)ccc2o1
% inhibition DNA gyrase (S. aureus DNA gyrase; [4]): 92% | % inhibition Topo IV (E. coli Topoisomerase IV; [4]): 100% | % inhibition Topo IV [1, 4]: 89% | % inhibition DNA gyrase (E. coli DNA gyrase; [4]): 100%

COc1cc2ccccc2c(N2CCN(CCCNc3cc(=O)oc4ccccc34)CC2)n1
% inhibition DNA gyrase (S. aureus DNA gyrase; [5]): 93% | % inhibition Topo IV [1, 5]: 49% | % inhibition DNA gyrase (E. coli DNA gyrase; [5]): 85%

O=c1nc(NC[C@@H](O)CN2CCN(c3nccc4ccc(F)cc34)CC2)c2ccccc2o1
% inhibition DNA gyrase (S. aureus DNA gyrase; conc. 50 μM): 100% | % inhibition Topo IV (E. coli Topoisomerase IV; conc. 50 μM): 100% | % inhibition Topo IV ([1]; conc. 50 μM): 100% | % inhibition DNA gyrase (E. coli DNA gyrase; conc. 50 μM): 100%

— patent publication US10221144B2, “Antibacterial compounds having broad spectrum of activity” (priority 2014, dated 2019)
